Data reported in US20260384417A1, “STERYLGLUCOSIDASE INHIBITING COMPOSITIONS AND METHOD OF USING” (published 2026).
Entries after “also recorded” stand apart in the source; their conditions may differ. Not every entry of the source has a single result; some have several. Only these are listed. The source may hold further records. The values listed for one entry do not match, cause unknown; they may come from other doses, times, organisms or constructs than stated.

System: C. neoformans H99
Experiment: Sterylglucoside (ergosterol 3β-D-glucoside) accumulation in C. neoformans cells
Details: compared with other hits
Experimental: C. neoformans H99 was cultivated in yeast nitrogen base (YNB) broth for 24 h at 37 °C with shaking. A pellet with 5×10^8 cells was treated during 24 h with all the hits selected, according to the toxicity criteria, in various concentrations. […] After that, the resultant pellets were re-counted and used for lipid extraction. Thenceforth the total lipid was extracted and dried samples were resuspended in chloroform/methanol 2:1 ratio for LC-MS analysis. A standard erg-glc from Avanti Polar Lipids was used as a control for the calibration curve. Data were normalized to the total inorganic phosphate content in the sample.

**Q.** For `CN1C[C@H](NC(=O)Cc2ccc3c(c2)NC(=O)CO3)C[C@H]1CO`, which “SG accumulation in Cn WT cells” value is on record?
**A.** accumulate more SGs than those treated with Hit 1 or Hit 15; also recorded: higher accumulation of SGs in Cn cells compared to Hit 1 or Hit 15
